We go through one molecule from patent US20140286960A1 (CANGENE, published 2014).

This assay concerns the target Staphylococcus aureus alpha-hemolysin (Staphylococcus aureus, UniProt P09616 27-319). As to the kind of experiment: cell-based or functional assay.

B1: CAN24G4 monoclonal antibody (antibody, V domains shown)
VH: EVHLQQSGAELVKPGASVRLSCTGSGLDIKDTYIHWVKKRPEQGLEWIGRIDPANGITKYDPKFQGKATVTADTSSNTAYLQFSSLTSEDSAVYYCSSEYYPYPMDYWGQGTSVTVSS
VL: DIKMTQPPSSMYASLGERVTVTCKASQDISSFLTWFQQKPGKSPKILIYRANRVVDGVPSRFSGSGSGHDYSLTISSLESEDMGIYYCLQYDEFPWTFGGGTKLEIK
Consider B1, for which the “NT50 relative to the sheep anti-alpha hemolysin pAb (Toxin Tech)” value is 13 fold.
